Compound potency records, mixed from different reports. Data source: NIAID ChemDB in PubChem.

All rows: cytotoxicity tests; cells: H9; read-out: CC50

Conditions beyond the fields shown may differ between rows. CCn is the concentration with n% toxicity to the cells. a–b is a range or a potency band.

{"smiles": "COC(=O)C1C[C@]2(C)C3CC[C@@]4(C)C(CC[C@@H]4O)C3CC[C@]23O[C@@H]3C1=O", "result": "10.8 µM"}
{"smiles": "COc1cc([C@H]2Oc3c(OC)cc4ccc(=O)oc4c3O[C@@H]2CO)ccc1O", "result": "18.63 µg/mL"}
{"smiles": "Nc1ccn([C@H]2CC[C@@H](CO)O2)c(=O)n1", "result": ">1 µg/mL"}
{"smiles": "C[C@@]12CCCC[C@]13O[C@@H]3C(=O)C(C(N)=O)C2", "result": "26.24 µM"}
{"smiles": "CC1(C)Oc2ccc3ccc(=O)oc3c2[C@@H](OC(=O)C23CCC(C)(C(=O)O2)C3(C)C)[C@H]1OC(=O)C12CCC(C)(C(=O)O1)C2(C)C", "result": "32–160 µM"}
{"smiles": "COc1ccc(Cc2cc3cc(OC)c(OC)cc3c[n+]2C)cc1OC", "result": ">100 µg/mL"}
{"smiles": "Cc1cn([C@H]2C[C@H](F)[C@@H](CO)O2)c(=O)[nH]c1=O", "result": ">500 µM"}
{"smiles": "C/C=C(/C)C(=O)OC1c2cc3c(c(OC)c2-c2c(cc4c(c2OC)OCO4)C[C@H](C)[C@]1(C)O)OCO3", "result": "41 µg/mL"}
{"smiles": "Cc1cc(=O)[nH]c2cc(N)ccc12", "result": "104 µM"}
{"smiles": "OCc1cc(OCc2ccccc2)c(OCc2ccccc2)c(OCc2ccccc2)c1-c1c(CO)cc(OCc2ccccc2)c(OCc2ccccc2)c1OCc1ccccc1", "result": ">120 µM"}
{"smiles": "CCCCCC1NCCc2cc(O)c(O)cc21", "result": "21.6 µg/mL"}
{"smiles": "C[C@@]12CCCC[C@]13O[C@@H]3C(=O)C(C(=O)Nc1ccccc1)C2", "result": "7.98 µM"}
{"smiles": "Nc1nc2c(ncn2[C@@H]2O[C@H](CO)[C@@H](O)[C@H]2O)c(=O)o1", "result": ">500 µg/mL"}
{"smiles": "COc1cc2c(cc1OC)CC[NH+]=C2", "result": "23.6 µg/mL"}
{"smiles": "C[C@]12CCCC[C@]13O[C@@H]3C(=O)C(C#N)C2", "result": "98.42 µM"}
{"smiles": "COc1cc(/C=C/C(=O)Oc2ccc(/C=C\\C(=O)NCCc3ccc(O)cc3)cc2OC)ccc1O", "result": ">25 µg/mL"}
{"smiles": "Cc1c2cc(O)c(O)cc2cc[n+]1C", "result": "2.15 µg/mL"}
{"smiles": "CC(=O)O[C@H]1CCC2C3CC[C@@]45O[C@@H]4C(=O)C(S(C)(=O)=O)C[C@]5(C)C3CC[C@@]21C", "result": "1.29 µM"}
{"smiles": "Cc1cc(=O)[nH]c2c3c(ccc12)OC(C)(C)[C@H](OC(=O)C12CCC(C)(C(=O)O1)C2(C)C)[C@@H]3OC(=O)C12CCC(C)(C(=O)O1)C2(C)C", "result": "28 µM"}
{"smiles": "COc1cc(/C=C/C(=O)OCCCc2ccc(O[C@@H](COC(=O)/C=C/c3ccc(O)c(OC)c3)[C@@H](O)c3ccc(O)c(OC)c3)c(OC)c2)ccc1O", "result": "17.86 µg/mL"}
{"smiles": "BrCc1cc(OCc2ccccc2)c(OCc2ccccc2)c(OCc2ccccc2)c1-c1c(CBr)cc(OCc2ccccc2)c(OCc2ccccc2)c1OCc1ccccc1", "result": ">100 µM"}
{"smiles": "CC1=CCC[C@H]2[C@](C)(Cc3cc(O)ccc3O)[C@@H](C)CC[C@]12C", "result": "1.6 µM"}
{"smiles": "COc1ccc(C(C)c2c3cc(OC)c(OC)cc3cc[n+]2C)cc1OC", "result": ">100 µg/mL"}
{"smiles": "O=c1[nH]c(=O)n([C@H]2C[C@H](F)[C@@H](CO)O2)cc1I", "result": ">500 µM"}
{"smiles": "C[C@]12CCC3C(CC[C@@]45O[C@@H]4C(=O)C(C(N)=O)C[C@]35C)C1CC[C@@H]2O", "result": "7.8 µM"}
{"smiles": "Nc1nc2c(ncn2[C@H]2CC[C@@H](CO)O2)c(=O)o1", "result": ">500 µg/mL"}
{"smiles": "CC1(C)Oc2ccc3ccc(=O)oc3c2[C@H](OC(=O)C23CCC(C)(C(=O)O2)C3(C)C)[C@H]1OC(=O)C12CCC(C)(C(=O)O1)C2(C)C", "result": "6.4–32 µM"}
{"smiles": "COc1cc(CO)c(Cc2c3cc(OC)c(OC)cc3cc[n+]2C)cc1OC", "result": ">100 µg/mL"}
{"smiles": "Cc1cn([C@H]2C[C@H](N=[N+]=[N-])[C@@H](CO)O2)c(=O)[nH]c1=O", "result": "500 µg/mL"}
{"smiles": "Cc1cn([C@H]2C[C@H](N=[N+]=[N-])[C@@H](CO)O2)c(=O)[nH]c1=O", "result": ">500 µM"}
{"smiles": "COc1cc(/C=C/C(=O)O[C@H]2CC[C@@]3(C)C(CC[C@]4(C)C3CC=C3[C@@H]5CC(C)(C)CC[C@]5(C(=O)O)CC[C@]34COC(=O)/C=C/c3ccc(O)c(O)c3)C2(C)C)ccc1O", "result": "14.95 µg/mL"}
{"smiles": "Nc1nc2c(ncn2[C@@H]2O[C@H](COP(=O)(O)O)[C@@H](O)[C@H]2O)c(=O)o1", "result": ">500 µg/mL"}
{"smiles": "Cc1cn([C@H]2C[C@H](N=[N+]=[N-])[C@@H](CO)O2)c(=O)[nH]c1=O", "result": "500 µg/mL"}
{"smiles": "Cc1cn([C@H]2C[C@H](N=[N+]=[N-])[C@@H](CO)O2)c(=O)[nH]c1=O", "result": ">500 µg/mL"}
{"smiles": "COc1ccc(C(C)c2nccc3cc(OC)c(OC)cc23)cc1OC", "result": "11.6 µg/mL"}
{"smiles": "CC1(C)Oc2ccc3ccc(=O)oc3c2C(OC(=O)c2cccc(Cl)c2)C1OCc1ccccc1", "result": "8–41 µM"}